A mixed list of measured activities; the numbers were collected in NIAID ChemDB.

Common to all: growth or infection tests; species: Rhinovirus; read-out: inhibition

Percent inhibition refers to the dose given; in toxicity tests it is the harm to the cells.

structure	cells	tested at	strain or isolate	method	value
Cc1cc(CCCCCCCOc2ccc(C3=NCCO3)cc2)on1		0.203 µg/mL	100 serotypes		18%
Nc1cccc(S(=O)(=O)O)c1	Human embryonic lung cells	50 µg/mL		cytopathic effect	0%
N#Cc1cc([N+](=O)[O-])ccc1Oc1ccc(Cl)c(Cl)c1	VERO	0.048 µg/mL	TYPE 1A		11%
O=C(O)Cc1csc(/N=C2\SC[C@@H]3Cc4ccccc4CN23)n1	MRC-5	7 µg/mL	Serotype 1A	cytopathic effect	80–100%
COc1ccc(N2CCN(c3cccc(C)c3)CC2)nn1		3 µg/mL	100 serotypes		53%
O=S(=O)([O-])c1cc(O)c2ccccc2c1	Human embryonic lung cells	10 µg/mL		cytopathic effect	44%
CC1(C)COC(c2ccc(OCCN3CCN(c4ccc(Cl)nn4)CC3)cc2)=N1		32 µg/mL	17 serotypes		53%
O=S(=O)([O-])c1cccc(O)c1	Human embryonic lung cells	10 µg/mL		cytopathic effect	0%
Cc1cc(Cn2cnc3c(N(C)C)nc(C(F)(F)F)nc32)ccc1Cl	M-HELA	8 µM	Serotype 30	plaque count	31%
CCCCCCCCCCCCCCOc1ccc(C(C)=O)o1		0.355 µg/mL	17 serotypes		53%
Cc1ccc(Cn2cnc3c(N(C)C)nc(C(F)(F)F)nc32)c(C)c1	M-HELA	8 µM	Serotype 19	plaque count	36%
O=C1C(c2[nH]c3ccc(S(=O)(=O)O)cc3c2O)=Nc2ccc(S(=O)(=O)O)cc21	Human amnion AV3 cells	50 µg/mL		cytopathic effect	0%
CN(C)c1nc(C(F)(F)F)nc2c1ncn2Cc1ccc(Cl)c(NC=O)c1	M-HELA	8 µM	Serotype 15	plaque count	29%
FC(F)(F)c1cccc(C2CCN(c3ccc(Br)nn3)C2)c1		0.006 µg/mL	17 serotypes		18%
Cc1cc(Cl)ccc1Cn1cnc2c(N(C)C)nc(C(F)(F)F)nc21	M-HELA	8 µM	Serotype 30	plaque count	28%
Nc1cc(S(=O)(=O)[O-])cc2cc(S(=O)(=O)[O-])ccc12	Human embryonic lung cells	10 µg/mL		cytopathic effect	50%
Cc1ccc(N2CCC(c3cccc(C(F)(F)F)c3)C2)nn1		0.018 µg/mL	17 serotypes		18%
CN(C)c1nc(C(F)(F)F)nc2c1ncn2Cc1ccc(Cl)c(N)c1	M-HELA	8 µM	Serotype 21	plaque count	10%

An empty or dashed field is not shown. Lines come from different laboratories, so protocols vary. Two numbers with a dash give a range or band.